Pooled drug test results. Numbers come from NIAID ChemDB, via PubChem.

Common to all: toxicity to cultured cells; cell line: HEP-2; read-out: CC50

Neighbouring rows are from separate reports. CCn: concentration that lowers growth or viability of the cells by n%. Blank or dashed fields: not listed here.

compound | read by | value
CSc1nsc(-c2ccc(OS(=O)(=O)c3ccc(C)cc3)cc2)c1C#N | - | 25 µM
N#Cc1cc(CC(=O)c2ccccc2)c(=O)n2c1sc1ccccc12 | - | 200 µg/mL
CSc1nsc(-c2ccc(OS(=O)(=O)c3ccc(C)cc3)cc2)c1C#N | - | >25 µM
CSc1nsc(-c2cccnc2)c1C#N | - | 20 µM
CSc1noc(-c2ccc(OCCOc3ccc(C)cc3)cc2)c1C#N | - | >25 µM
O=C(NNCc1cccc(O)c1O)c1ccccc1O | ATP | 570 µM
CSc1nsc(-c2ccc3ccccc3c2)c1C#N | - | 20 µM
Nc1ncnc2c1ncn2[C@H]1[C@H](O)[C@H](F)[C@@H](CO)[C@@H]1O | - | >320 µM
CCOC(=O)c1cc(C(=O)O)c(=O)n2c1[nH]c1ccccc12 | - | 40 µg/mL
CC(C)C1=CC2CC3(C=O)[C@@H]4CC[C@@H](C)[C@H]4CC2(C(=O)C#CC(C)(C)C)[C@]13C(=O)O | - | 1.4 µg/mL
O=C(/C=C/c1ccc(O)c(O)c1)O[C@@H]1CC(O)(C(=O)O)C[C@@H](OC(=O)/C=C/c2ccc(O)c(O)c2)C1O | - | >100 µg/mL
CCCCCCC(O)C12C[C@@H]3[C@H](C)CC[C@H]3C3(C=O)CC1C=C(C(C)C)[C@@]23C(=O)O | - | 1.5 µg/mL
CSc1nsc(-c2ccc(O)cc2)c1C#N | - | 2 µM
O=C(/C=C/c1ccc(O)c(O)c1)O[C@@H]1CC(O)(C(=O)O)C[C@@H](OC(=O)/C=C/c2ccc(O)c(O)c2)C1O | - | >394.4 µg/mL
COc1ccc(-c2snc(SC)c2C#N)cc1 | - | 10 µM
Cc1cc(=O)c2c(O)c(C)c(O[C@H]3O[C@H](CO)[C@@H](O)[C@H](O)[C@H]3O)c(C)c2o1 | - | 82.5 µg/mL
CSc1nsc(-c2cccc3ccccc23)c1C#N | - | 4 µM
Nc1ccn([C@H]2CC[C@@H](CO)O2)c(=O)n1 | - | 381.9 µg/mL
CSc1noc(-c2ccc(OCCc3ccccc3)cc2)c1C#N | - | >20 µM
CCOC(=O)c1cc(CC(=O)c2ccccc2)c(=O)n2c1sc1ccccc12 | - | 40 µg/mL
CSc1nsc(C)c1C#N | - | 100 µM
CC(C)C1=CC2CC3(C=O)[C@@H]4CC[C@@H](C)[C@H]4CC2(C(O)CC2CCCCC2)[C@]13C(=O)O | - | 1.8 µg/mL
Nc1nccc2c1ncn2[C@@H]1C=C(CO)[C@@H](O)[C@H]1O | - | 0.1 µg/mL
NC(=O)CCN(CCC(N)=O)S(=O)(=O)c1cccc(Nc2nc(Nc3cccc(S(=O)(=O)N(CCC(N)=O)CCC(N)=O)c3)nc(Nc3ccc(-c4ccc(Nc5nc(Nc6cccc(S(=O)(=O)N(CCC(N)=O)CCC(N)=O)c6)nc(Nc6cccc(S(=O)(=O)N(CCC(N)=O)CCC(N)=O)c6)n5)cc4S(=O)(=O)O)c(S(=O)(=O)O)c3)n2)c1 | - | 375 µg/mL

Repeating the final 2 entries:

compound | read by | value
Nc1nccc2c1ncn2[C@@H]1C=C(CO)[C@@H](O)[C@H]1O | - | 0.1 µg/mL
NC(=O)CCN(CCC(N)=O)S(=O)(=O)c1cccc(Nc2nc(Nc3cccc(S(=O)(=O)N(CCC(N)=O)CCC(N)=O)c3)nc(Nc3ccc(-c4ccc(Nc5nc(Nc6cccc(S(=O)(=O)N(CCC(N)=O)CCC(N)=O)c6)nc(Nc6cccc(S(=O)(=O)N(CCC(N)=O)CCC(N)=O)c6)n5)cc4S(=O)(=O)O)c(S(=O)(=O)O)c3)n2)c1 | - | 375 µg/mL